Holding throughout (assay): cell-based or functional assay
In assay [1] the target is human Nav1.4 voltage-gated sodium channel (human) (UniProt P35499).
The target in assay [2] is human Nav1.7 voltage-gated sodium channel (human) (UniProt Q15858).
Assay [3] deals with human voltage-gated sodium channel Nav1.4 (human) (UniProt P35499).
In assay [4] the target is human voltage-gated sodium channel Nav1.7 (human) (UniProt Q15858).
For assay [5], the target named is human voltage-gated sodium channel Nav1.3 (human) (UniProt Q9NY46).
Assay [6] concerns the target human voltage-gated sodium channel Nav1.5 (human) (UniProt Q14524).
For assay [7], the target named is human Nav1.5 voltage-gated sodium channel (human) (UniProt Q14524).
Assay [8] deals with mouse Nav1.7 voltage-gated sodium channel (mouse) (UniProt Q62205).
Assay [9] deals with human Nav1.7 voltage-gated sodium channel (human) (UniProt Q15858). The source holds these as a separate data set.
Assay [10] addresses rat Nav1.7 voltage-gated sodium channel (rat) (UniProt O08562).
For assay [11], the target named is mouse Nav1.4 voltage-gated sodium channel (mouse) (UniProt Q9ER60).
The target of assay [12] is TTX-sensitive Nav channels in rat DRG neurons.
In assay [13] the target is human Nav1.6 voltage-gated sodium channel (human) (UniProt Q9UQD0).
For assay [14], the target named is hNav1.4 channels in HEK293 cell (human) (UniProt P35499).

The values below come from patent US20160024159A1, “Potent and selective inhibitors of Nav1.7” (published 2016).

Where “and” joins values, the source holds several entries; their conditions need not be identical. Equal values may be shown once. Read-outs that look alike come from different tables or passages of the source.

In assay [1], “Atz(NPEG10)-[Nle6]JzTx-V(1-29) (peptide; modification not given)” came in with a PX hNav1.4 Tonic IC50 of 8 nM. The same substance registered a PX hNav1.7 Tonic IC50 in assay [2] of 6 nM. The IC50, IonWorks Quattro electrophysiology amounted to 0.15 µM in assay [3], 0.07 µM in assay [4], 0.13 µM in [5] and 4.3 µM in assay [6]. The Nav1.4/Nav1.7 (ratio of IC50) in assay [3] worked out at 2 fold. Further, the PX hNav1.5 Tonic IC50 in assay [7] turned out to be 3770 nM.
In assay [1], “Pra-[Nle6; Gln28]JzTx (peptide; modification not given)” yielded a Nav1.4/Nav1.7 of 12 and a PX hNav1.4 Tonic IC50 of 10.7 nM. The substance further had a PX hNav1.7 Tonic IC50 in assay [2] of 0.912 nM. Further, in assay [7], the Nav1.5/Nav1.7 was determined as 3530 and the PX hNav1.5 Tonic IC50 amounted to 3220 nM.
In assay [8], “Pra-[Nle6;Glu28;Phe29]JzTx-V(1-29) (peptide; modification not given)” registered a PX mNav1.7 Tonic IC50 of 3.45 nM and a mNav1.7/hNav1.7 of 8.9. In addition, in assay [9], the PX hNav1.7 Tonic IC50 came out at 0.388 nM. Also, in [10], the PX rNav1.7 Tonic IC50 stood at 0.296 nM and the rNav1.7/hNav1.7 was determined as 0.76.
Turning to “Sar-[Nle6]JzTx-V(1-29) (peptide; modification not given)”, in assay [8], the PX mNav1.7 Tonic IC50 was found to be 3.45 nM and the mNav1.7/hNav1.7 came out at 10.8. In [9], the PX hNav1.7 Tonic IC50 came to 0.32 nM.
In assay [8], “Atz(NPEG9)-[Nle6]JzTx-V(1-29) (peptide; modification not given)” displayed a PX mNav1.7 Tonic IC50 of 7.11 nM and a mNav1.7/hNav1.7 of 1.65. This substance also came in with a PX hNav1.7 Tonic IC50 in assay [9] of 4.3 nM. For the same substance, in assay [10], the PX rNav1.7 Tonic IC50 was 0.961 nM and the rNav1.7/hNav1.7 came to 0.22.
On to “Atz(NPEG23)-[Nle6]JzTx-V(1-29) (peptide; modification not given)”, for which the PX hNav1.7 Tonic IC50 in assay [2] worked out at 3.09 nM. Besides, in [8], the PX mNav1.7 Tonic IC50 came to 6.91 nM and the mNav1.7/hNav1.7 was found to be 2.24. The substance also came in with a PX hNav1.7 Tonic IC50 in assay [9] of 3.09 nM.
In turn, “Pra-[Nle6;Trp29]JzTx-V(1-29) (peptide; modification not given)” gave an IC50, IonWorks Quattro electrophysiology in assay [4] of 0.019 µM. In assay [8], this substance came in with a PX mNav1.7 Tonic IC50 of 10.7 nM and a mNav1.7/hNav1.7 of 2.23. In assay [9], this substance registered a PX hNav1.7 Tonic IC50 of 4.79 nM. In assay [11], this substance returned a PX mNav1.4 Tonic IC50 of 9.67 nM and a mNav1.4/mNav1.7 of 0.91.
In assay [8], “Pra-[Nle6;Glu12]JzTx-V(1-29) (peptide; modification not given)” showed a PX mNav1.7 Tonic IC50 of 0.61 nM and a mNav1.7/hNav1.7 of 0.51. In assay [9], this substance returned a PX hNav1.7 Tonic IC50 of 1.19 nM. In [11], this substance returned a PX mNav1.4 Tonic IC50 of 6.36 nM and a mNav1.4/mNav1.7 of 10. In assay [10], this substance showed a PX rNav1.7 Tonic IC50 of 0.58 nM and a rNav1.7/hNav1.7 of 0.49.
In the case of “Leu-[Nle6]JzTx-V(1-29) (peptide; modification not given)”, in assay [8], the PX mNav1.7 Tonic IC50 stood at 1.33 nM and the mNav1.7/hNav1.7 stood at 10.2. Also, in [9], the PX hNav1.7 Tonic IC50 stood at 0.13 nM. In assay [11], this substance gave a PX mNav1.4 Tonic IC50 of 1.8 nM and a mNav1.4/mNav1.7 of 1.4.
“Pra-[Nle6,Glu28]JzTx-V(1-29) (peptide; modification not given)” showed a WCPC Mean IC50, partially inactivated in assay [12] of 30.7 nM. In assay [2], this substance displayed a PX hNav1.7 Tonic IC50 of 0.548 nM and a WCPC Mean IC50, partially inactivated of 0.62 nM. Besides, the PX hNav1.6 Tonic IC50 in assay [13] is 183 nM. In assay [8], this substance yielded a PX mNav1.7 Tonic IC50 of 9.86 nM and a mNav1.7/hNav1.7 of 18. Further, the PX hNav1.7 Tonic IC50 in [9] was 0.548 nM. The mNav1.4/mNav1.7 in assay [11] was found to be 12. In assay [10], this substance showed a PX rNav1.7 Tonic IC50 of 0.641 nM and a rNav1.7/hNav1.7 of 1.17.
Consider “Pra-[Nle6;5-BrW24;Glu28]JzTx-V(1-29) (peptide; modification not given)”, for which the PX hNav1.7 Tonic IC50 in [2] amounted to 0.059 nM. The PX hNav1.6 Tonic IC50 in [13] is 49.2 nM. Further, in assay [8], the PX mNav1.7 Tonic IC50 turned out to be 0.911 nM and the mNav1.7/hNav1.7 is 23.3. The same substance displayed a PX hNav1.7 Tonic IC50 in assay [9] of 0.039 nM. For the same substance, in [10], the PX rNav1.7 Tonic IC50 worked out at 2.43 nM and the rNav1.7/hNav1.7 worked out at 62.3.
“[Pra1; Nle6; Glu28]JzTx-V(1-29) (peptide; modification not given)”: the Nav1.4/Nav1.7 in assay [1] was determined as 555. The substance also showed a Nav1.5/Nav1.7 in assay [7] of 17200.
Consider “D-Leu-[Nle6]JzTx-V(1-29) (peptide; modification not given)”, for which, in assay [8], the PX mNav1.7 Tonic IC50 turned out to be 12.6 nM and the mNav1.7/hNav1.7 came to 84. The same substance came in with a PX hNav1.7 Tonic IC50 in [9] of 0.15 nM.
In assay [1], “Atz(PEG11-benzylthioacetamide)-[Nle6]JzTx-V(1-29) (peptide; modification not given)” gave a PX hNav1.4 Tonic IC50 of 13 nM. In [2], this substance came in with a PX hNav1.7 Tonic IC50 of 1.4 nM. Besides, the PX hNav1.5 Tonic IC50 in [7] is 1980 nM.
On to “Pra-[Glu1,28;Nle6]JzTx-V(1-29) (peptide; modification not given)”, for which, in assay [2], the PX hNav1.7 Tonic IC50 was 1.13 nM. The PX hNav1.6 Tonic IC50 in [13] is 584 nM. Moreover, in assay [8], the PX mNav1.7 Tonic IC50 came out at 9.48 nM and the mNav1.7/hNav1.7 came out at 8.41. The PX hNav1.7 Tonic IC50 in [9] was determined as 1.13 nM. Moreover, in assay [11], the PX mNav1.4 Tonic IC50 came out at 259 nM and the mNav1.4/mNav1.7 was found to be 27. In [10], the PX rNav1.7 Tonic IC50 was found to be 1.38 nM and the rNav1.7/hNav1.7 came to 1.22.
In assay [1], “Pra-[Glu1, 28; Nle6]JzTx-V(1-29) (peptide; modification not given)” displayed a Nav1.4/Nav1.7 of 164 and a PX hNav1.4 Tonic IC50 of 185 nM. Further, in assay [2], the PX hNav1.7 Tonic IC50 was found to be 1.13 nM. Besides, in [7], the Nav1.5/Nav1.7 was above 887 and the PX hNav1.5 Tonic IC50 is above 1000 nM.
In [8], “Trp-[Nle6]JzTx-V(1-29) (peptide; modification not given)” displayed a PX mNav1.7 Tonic IC50 of 1.34 nM and a mNav1.7/hNav1.7 of 4.07. Besides, the PX hNav1.7 Tonic IC50 in [9] is 0.33 nM.
On the same counts, the results for “CyA-[Nle6]JzTx-V(1-29) (peptide; modification not given)” are 0.957 nM, 3.09 and 0.31 nM.
In turn, “[Glu28]JzTx-V(1-29) (peptide; modification not given)” gave a PX hNav1.7 Tonic IC50 in [2] of 0.568 nM. Further, the IC50 (IonWorks Quattro) was 830 nM in assay [3], 28 nM in assay [4], 330 nM in assay [5] and above 5000 nM in assay [6]. This substance returned a PX hNav1.6 Tonic IC50 in assay [13] of 248 nM.
For the substance “Pra-[Nle6; Trp29]JzTx-V(1-29) (peptide; modification not given)”, in assay [1], the Nav1.4/Nav1.7 was 8 and the PX hNav1.4 Tonic IC50 is 37 nM. In assay [2], this substance displayed a PX hNav1.7 Tonic IC50 of 4.79 nM. Besides, in assay [7], the Nav1.5/Nav1.7 worked out at 479 and the PX hNav1.5 Tonic IC50 turned out to be 2290 nM.
Consider “Homodimeric Conjugate No. 2 (peptide; modification not given)”, for which the PX hNav1.5 Tonic IC50 in [7] was 720 nM and 1180 nM.
In assay [8], “Pra-[Nle6;Glu28;Trp29]JzTx-V(1-29) (peptide; modification not given)” showed a PX mNav1.7 Tonic IC50 of 3.11 nM and a mNav1.7/hNav1.7 of 8.82. Moreover, the PX hNav1.7 Tonic IC50 in [9] was 0.352 nM. Moreover, in [10], the PX rNav1.7 Tonic IC50 was found to be 0.097 nM and the rNav1.7/hNav1.7 was determined as 0.27.
For the substance “Nva-[Nle6]JzTx-V(1-29) (peptide; modification not given)”, the PX hNav1.7 Tonic IC50 in [9] worked out at 0.82 nM. Also, the PX mNav1.4 Tonic IC50 in assay [11] amounted to 4.54 nM.
“Pra-[Nle6]JzTx-V(1-29) (peptide; modification not given)” came in with a PX hNav1.7 Tonic IC50 in [2] of 1.2 nM. Also, the IC50, IonWorks Quattro electrophysiology in [4] was 0.008 µM and 0.013 µM. In assay [13], this substance had a PX hNav1.6 Tonic IC50 of 67.9 nM. In [8], this substance registered a PX mNav1.7 Tonic IC50 of 0.511 nM and a mNav1.7/hNav1.7 of 0.43. Besides, the PX hNav1.7 Tonic IC50 in assay [9] amounted to 1.2 nM. In assay [11], this substance showed a PX mNav1.4 Tonic IC50 of 0.18 nM and a mNav1.4/mNav1.7 of 0.35. In assay [10], the PX rNav1.7 Tonic IC50 was found to be 0.522 nM and the rNav1.7/hNav1.7 was determined as 0.44.
In [2], “[Glu20,Trp29]JzTx-V(1-29) (peptide; modification not given)” yielded a PX hNav1.7 Tonic IC50 of 1.59 nM and a WCPC Mean IC50, partially inactivated of 0.23 nM. The same substance came in with a Nav1.4 selectivity (fold over hNav1.7), PatchXpress in assay [14] above 1000 fold. Further, in [13], the PX hNav1.6 Tonic IC50 came out at 720 nM. In [8], the PX mNav1.7 Tonic IC50 came out at 5.08 nM and the mNav1.7/hNav1.7 was 3.2. The PX hNav1.7 Tonic IC50 in assay [9] came to 1.59 nM. In assay [10], this substance showed a PX rNav1.7 Tonic IC50 of 1.3 nM and a rNav1.7/hNav1.7 of 0.82.
“Atz(Biotin)-[Nle6]JzTx-V(1-29) (peptide; modification not given)” yielded a PX hNav1.4 Tonic IC50 in [1] of 15.5 nM. For the same substance, the PX hNav1.7 Tonic IC50 in [2] was determined as 2.48 nM. In addition, the PX hNav1.5 Tonic IC50 in assay [7] was found to be 5130 nM.
